Values after ≈ are worked out from the molar mass of the structure shown.
System: HCoV-229E
Experiment: Plaque reduction test (antiviral assay) in Vero E6 cells
Details: for IC50: inhibition of HCoV-229E plaque formation; for Titer Post-Tx: viral titer after treatment

SMILES: CC[C@H](C)[C@H](NC(=O)[C@H](Cc1ccc(O)cc1)NC(=O)[C@H](CO)NC(=O)[C@H](CCC(=O)O)NC(=O)[C@H](CC(N)=O)NC(=O)[C@H](CC(C)C)NC(=O)[C@H](C)NC(=O)[C@H](CCCCN)NC(=O)[C@@H](NC(=O)[C@@H](NC(=O)[C@H](CCC(N)=O)NC(=O)[C@H](CCC(N)=O)NC(=O)[C@H](CC(C)C)NC(=O)[C@H](CO)NC(=O)[C@H](CC(C)C)NC(=O)[C@H](CCSC)NC(=O)[C@H](CCC(=O)O)NC(=O)[C@H](Cc1ccc(O)cc1)NC(=O)[C@@H](NC(=O)[C@H](CC(C)C)NC(=O)[C@H](CC(=O)O)NC(=O)[C@H](CC(C)C)NC(=O)[C@H](CC(C)C)NC(=O)[C@@H](NC(=O)[C@@H](NC(=O)[C@H](CC(N)=O)NC(=O)[C@@H](NC(=O)[C@H](CCC(N)=O)NC(=O)[C@@H](NC(=O)[C@H](CC(C)C)NC(=O)[C@@H](N)CO)[C@@H](C)O)[C@@H](C)CC)[C@@H](C)O)[C@@H](C)O)[C@@H](C)O)C(C)C)C(C)C)C(=O)N[C@@H](CC(=O)O)C(=O)N[C@@H](CC(C)C)C(=O)N[C@@H](CCCCN)C(=O)N[C@@H](CCC(=O)O)C(=O)N[C@@H](CC(C)C)C(=O)O
- IC50: 8.497 µg/mL (≈ 2.05 µM)
- Titer Post-Tx (peptide conc. 1 μg/ml): 0.030 × 10^3 PFU/ml
- Titer Post-Tx (peptide conc. 10 μg/ml): 0.021 × 10^3 PFU/ml
- Titer Post-Tx (peptide conc. 100 μg/ml): 0.015 × 10^3 PFU/ml

SMILES: CC[C@H](C)[C@H](NC(=O)[C@H](Cc1ccc(O)cc1)NC(=O)[C@H](CO)NC(=O)[C@H](CCC(=O)O)NC(=O)[C@H](CC(N)=O)NC(=O)[C@H](CC(C)C)NC(=O)[C@H](CCCCN)NC(=O)[C@H](CCCCN)NC(=O)[C@@H](NC(=O)[C@@H](NC(=O)[C@H](CCC(=O)O)NC(=O)[C@H](CCC(=O)O)NC(=O)[C@H](CC(C)C)NC(=O)[C@H](CO)NC(=O)[C@H](CCCNC(=N)N)NC(=O)[C@H](CCSC)NC(=O)[C@H](CCC(=O)O)NC(=O)[C@H](Cc1ccc(O)cc1)NC(=O)[C@H](CCC(=O)O)NC(=O)[C@H](CC(C)C)NC(=O)[C@H](CC(=O)O)NC(=O)[C@H](CC(C)C)NC(=O)[C@H](CC(C)C)NC(=O)[C@@H](NC(=O)[C@@H](NC(=O)[C@H](CC(N)=O)NC(=O)[C@@H](NC(=O)[C@H](CCC(N)=O)NC(=O)[C@@H](NC(=O)[C@H](CC(C)C)NC(=O)[C@@H](N)CO)[C@@H](C)O)[C@@H](C)CC)[C@@H](C)O)[C@@H](C)O)C(C)C)C(C)C)C(=O)N[C@@H](CC(=O)O)C(=O)N[C@@H](CC(C)C)C(=O)N[C@@H](CCCCN)C(=O)N[C@@H](CCC(=O)O)C(=O)N[C@@H](CC(C)C)C(=O)O
- IC50: 6.63 µg/mL (≈ 1.55 µM)
- Titer Post-Tx (peptide conc. 1 μg/ml): 0.029 × 10^3 PFU/ml
- Titer Post-Tx (peptide conc. 10 μg/ml): 0.019 × 10^3 PFU/ml
- Titer Post-Tx (peptide conc. 100 μg/ml): 0.017 × 10^3 PFU/ml

— patent publication US11707504B1 (dated 2023)
